From patent US9199200B2, “Submerged membrane bioreactor system and biological methods for removing bisphenol compounds from municipal wastewater” (Centre de Recherche Industrielle de Québec (CRIQ), priority 2010, dated 2015)

Test system: biomass (activated sludge) of the SMBR
Assay: SMBR treatment of real municipal wastewater spiked by BPA
Details: inlet 0.635-0.822 mg/L, HRT 6 h, 6.0 g VSS/L

CC(C)(c1ccc(O)cc1)c1ccc(O)cc1 [BPA, 2,2-Bis(4-hydroxyphenyl)propane]
Removal rate, BPA: ≧98.9%
Outlet conc. of SMBR (in the filtrate), BPA (limit of detection 0.001 mg/L): ≦0.001 mg/L
